A mixed list of measured activities; the numbers were collected in NIAID ChemDB.

All rows: tests in culture; organism: Mycobacterium tuberculosis

Conditions beyond the fields shown may differ between rows.

compound	setting	dose	strain	method	changes	read-out	result
O=c1oc2c(Cl)cc(Cl)cc2c(=O)n1-c1ccccc1			CNCTC MY331/88			MIC	63.1 µM
Cn1c([N+](=O)[O-])cnc1-c1nnc(S(=O)Cc2cccc([N+](=O)[O-])c2)s1						MIC	>6.25 µg/mL
COc1cccc(NC(=O)C2=C(C)NC(C)=C(C(=O)Nc3cccc(OC)c3)C2c2ccc(O)cc2)c1			H37Rv			MIC	>6.25 µg/mL
NCC[C@H](O)C(=O)N[C@@H]1C[C@H](N)[C@@H](O[C@H]2O[C@H](CN)[C@@H](O)[C@H](O)[C@H]2O)[C@H](O)[C@H]1O[C@H]1O[C@H](CO)[C@@H](O)[C@H](N)[C@H]1O			H37Rv			MIC	2.5 µg/mL
C=C1C(=O)C23OC2C1CCC(=O)C1(C)CCC(OC(C)=O)C(C)(C)C1CC3=O			H37Rv	BACTEC		MIC bound	≤12.5 µg/mL
CCCCc1nc(Cl)c(C2C(C(=O)Nc3ccc(C)cc3)=C(C)NC(C)=C2C(=O)Nc2ccc(C)cc2)[nH]1		6.25 µg/mL	H37Rv	resazurin		inhibition	49%
CCCCc1ccc(CO[C@@H]2COc3nc([N+](=O)[O-])cn3C2)cc1			W (MDR)			MIC	0.03 µg/mL
CCC(=O)C(N)(O)C(=O)O				broth dilution		MIC90	0.21 µg/mL
Cn1c([N+](=O)[O-])cnc1-c1nnc(S(=O)(=O)Cc2cccc([N+](=O)[O-])c2)s1						MIC	6.25 µg/mL
CC1=C(C(=O)Nc2ccc(C)cc2C)C(c2ccccc2Cl)C(C(=O)Nc2ccc(C)cc2C)=C(C)N1			H37Rv			MIC	>12.5 µg/mL
CCCCc1ccc2c(c1)C(=O)c1nc3ccncc3c(=O)n1-2			H37Rv			MIC	0.015 µg/mL
COc1cc(O)c2c(=O)c(OC)c(-c3ccc(O)cc3)oc2c1O	multidrug-resistant		Clinical isolates	resazurin		MIC	>50 µg/mL
O=C(NN=C1CCCCC1)c1ccncc1						MIC90	2.67 µg/mL
Cc1ccc(NC2=CC(=O)c3ccccc3C2=O)cc1			H37Rv	visual reading		MIC	2 µg/mL
CCCCc1nc(Cl)c(C2C(C(=O)Nc3ccc(Cl)cc3)=C(C)NC(C)=C2C(=O)Nc2ccc(Cl)cc2)[nH]1		6.25 µg/mL	H37Rv	resazurin		inhibition	99%
Cc1cn(C2C=CC(COC(=O)CNC(=O)c3ccncn3)O2)c(=O)[nH]c1=O			H37Rv			EC50	>6.25 µg/mL
CCOC(=O)/N=C1\SC2(CC(C)=C(C)CS2=O)C(O)=C1C(=O)OCC			H37Rv	resazurin		MIC bound	>6.25 µg/mL
CCn1cc(C(=O)O)c(=O)c2cc(F)c(N3CCN(CC(=O)OC[C@@H]4C=C[C@H](n5cc(C)c(=O)[nH]c5=O)O4)CC3)cc21			H37Rv			EC50	<6.25 µg/mL
CC(=O)NC[C@H]1CN(c2ccc(-c3ccc(-c4nnnn4C)nc3)c(F)c2)C(=O)O1			67 clinical isolates			MIC90	0.125 µg/mL
COC(=O)N1C2CCCCC2=NN(c2ccccc2)N1C(=O)OC			H37Rv	BACTEC		MIC	≥128 µg/mL
COc1ccccc1C1C(C(=O)Nc2ccccc2Cl)=C(C)NC(C)=C1C(=O)Nc1ccccc1Cl			H37Rv			MIC	>12.5 µg/mL
O=C1c2cc(I)ccc2-n2c1nc1ccccc1c2=O			H37Rv			MIC	0.13 µg/mL
O=C(/C=C/c1ccccc1)NNC(=O)c1cccnc1		6.25 µg/mL	H37Rv	resazurin		inhibition	54%
CCCCCS(=O)(=O)Nc1ccc2n[nH]c(C)c2c1			H37Rv	resazurin		MIC	0.125 µM
Cn1c([N+](=O)[O-])cnc1-c1nnc(S(=O)(=O)Cc2ccc([N+](=O)[O-])cc2)s1						MIC	>6.25 µg/mL
CCCCc1nc(Cl)c(C2C(C(=O)Nc3ccccc3[N+](=O)[O-])=C(C)NC(C)=C2C(=O)Nc2ccccc2[N+](=O)[O-])[nH]1			H37Rv			MIC	3.13 µg/mL
OC[C@H]1NC[C@@H](O)[C@@H](O)[C@@H]1O			H37Rv	BACTEC		MIC bound	>12.5 µg/mL
O=C(O)CNC1CCS(=O)(=O)C1				broth dilution		EC50	8 µg/mL
CCOC(=O)C(NC(=O)c1ccccc1)(N1CCN(c2cc3c(cc2F)c(=O)c(C(=O)O)cn3CC)CC1)C(F)(F)F			H37Rv			MIC	6.25 µg/mL
COc1ccc(C2C(C(=O)Nc3ccccc3Cl)=C(C)NC(C)=C2C(=O)Nc2ccccc2Cl)cc1			H37Rv			MIC	>12.5 µg/mL
CCCCc1nc(Cl)c(C2C(C(=O)Nc3ccccc3F)=C(C)NC(C)=C2C(=O)Nc2ccccc2F)[nH]1			H37Rv			MIC	6.25 µg/mL
CC1=C2C(=CO[C@H](C)[C@H]2C)C(=O)C(C(=O)O)=C1O		100 µg/mL	M.AV			inhibition	79%
CC1=C(C(=O)Nc2cccc(C(F)(F)F)c2)C(c2cccc(O)c2)C(C(=O)Nc2cccc(C(F)(F)F)c2)=C(C)N1			H37Rv			MIC	>6.25 µg/mL
O=C(Nc1ccc(Br)cc1)c1cnccn1			CS-R			MIC	>12.5 µg/mL
O=C(NN=C1CCCC1)c1ccncc1			EMB-resistant			MIC	0.1 µg/mL
CN[C@@H]1[C@H](O[C@H]2[C@H](O[C@H]3[C@H](O)[C@@H](O)[C@H](N=C(N)N)[C@@H](O)[C@@H]3N=C(N)N)O[C@@H](C)[C@]2(O)C=O)O[C@@H](CO)[C@H](O)[C@H]1O			H37Rv	resazurin		MIC	5.3 µM
CCCCc1nc(Cl)c(C2C(C(=O)Nc3ccccc3Cl)=C(C)NC(C)=C2C(=O)Nc2ccccc2Cl)[nH]1		6.25 µg/mL	H37Rv	resazurin		inhibition	88%
O=c1oc2c(Br)cc(Br)cc2c(=O)n1-c1cccc(Cl)c1			CNCTC MY331/88			MIC	7.94 µM
CC(C)(C)C1CCC(=NNC(=O)c2ccncc2)CC1			Rifampicin-resistant			MIC	0.1 µg/mL
CCOc1ccc2c(c1)[n+]([O-])c(S(=O)(=O)c1ccc(C)cc1)c(N)[n+]2[O-]			TAC-R			MIC	>12.5 µg/mL
COc1ccc(-n2c(=O)oc3c(Cl)cc(Cl)cc3c2=O)cc1			CNCTC MY331/88			MIC	126 µM
COc1cc(C[C@@H](C)[C@@H](C)Cc2ccc(O)c(OC)c2)ccc1O	multidrug-resistant		Clinical isolates	resazurin		MIC	12.5–50 µg/mL
COC(=O)c1cc(C(=O)OC)c(CC(=O)C(=O)Nc2ccc(Cl)c(C(F)(F)F)c2)nc1CC(=O)C(=O)Nc1ccc(Cl)c(C(F)(F)F)c1		12.5 µg/mL	H37Rv	BACTEC		inhibition	0%
O=c1[nH]c(=S)[nH]c(O)c1C=Nc1cc(Cl)ccc1O			H37Rv	visual reading		MIC	4 µg/mL
Cc1ccc(-n2c(=O)oc3c(Br)cc(Br)cc3c2=O)cc1			CNCTC MY331/88			MIC	31.6 µM
CCN(CC)N(C(=O)c1cccc(C)c1)C(=O)c1cccc(C)c1		12.5 µg/mL	H37Rv	BACTEC		inhibition	-13%
O=[N+]([O-])c1cccc(CS(=O)(=O)c2nnc(-c3ccc([N+](=O)[O-])s3)s2)c1						MIC	>6.25 µg/mL
CSC(=S)N/N=C/c1ccccc1O			H37Rv	BACTEC		MIC	64 µg/mL
COc1ccc(Cc2nn3cc(C45CC6CC(CC(C6)C4)C5)nc3s2)cc1			H37Rv	resazurin		MIC	32.7 µM
O=[N+]([O-])c1ccc(-c2nnc(S(=O)Cc3ccccc3[N+](=O)[O-])s2)s1						MIC	>6.25 µg/mL
O=Cc1ccc([N+](=O)ONNC(=O)c2ccco2)cc1		6.25 µg/mL	H37Rv	resazurin		inhibition	35%
O=[N+]([O-])c1ccc(CS(=O)(=O)c2nnc(-c3ccc([N+](=O)[O-])s3)s2)cc1						MIC	>6.25 µg/mL
C(=Nc1ccccc1)c1ccccc1			H37Rv	resazurin		EC90	>250 µg/mL
C=C(O)C1=C(C(=C)N(C)C)CC2=C(C1=O)C(O)CCC(C(=O)NCN1CCN(c3c(F)cc4c(c3OC)N(C(C)C)C=C(C(=O)O)C4O)CC1C)C(=O)C(N(C)C)CC2				broth dilution		MIC90	0.237 µg/mL
CC(C)(C)c1ccc(CO[C@@H]2COc3nc([N+](=O)[O-])cn3C2)cc1			H37Rv			MIC	0.03 µg/mL
NC(=S)NN=C1CCCCCCCCCCC1		6.25 µg/mL	H37Rv	resazurin		inhibition	56%
Nc1ccc2nc3n(c(=O)c2c1)-c1ccccc1C3=O			H37Rv			MIC	5 µg/mL
CCCCc1nc(Cl)c(C2C(C(=O)Nc3ccc(F)cc3)=C(C)NC(C)=C2C(=O)Nc2ccc(F)cc2)[nH]1		6.25 µg/mL	H37Rv	resazurin		inhibition	100%
c1coc(-c2nn3cc(C45CC6CC(CC(C6)C4)C5)nc3s2)c1			H37Rv	resazurin		MIC	38.2 µM
O=c1oc2c(Br)cc(Br)cc2c(=O)n1-c1ccc(Cl)c(Cl)c1			CNCTC MY331/88			MIC	7.94 µM
CN(/N=N/c1nc[nH]c1C(=O)NN)C1CCCCC1			H37Rv	BACTEC		MIC bound	>12.5 µg/mL
C[C@@H]1[C@H](C)[C@@H](c2ccc(O)cc2)O[C@H]1c1ccc(O)cc1	multidrug-resistant		Clinical isolates	resazurin		MIC	25 µg/mL
O=C1c2cc(Cl)ccc2-n2c1nc1ccncc1c2=O			H37Rv			MIC	0.03 µg/mL
O=c1c(Cl)c2cc3c(cc2c2ccccc12)nc1ccccc1n3C1CCCCC1			H37Rv	BACTEC		MIC bound	>12.5 µg/mL
O=C1c2cc(OC(F)(F)F)ccc2-n2c1nc1ccncc1c2=O			H37Rv			MIC	0.008 µg/mL
O=[N+]([O-])c1ccc(-c2nc3ccc(F)cc3[nH]2)o1			H37Rv	BACTEC		MIC	≥12.5 µg/mL
CCCCS(=O)(=O)Nc1cc2c(Cl)[nH]nc2cc1C			H37Rv	resazurin		MIC	>100 µM
COc1ccc(-c2csc(/C(C#N)=C/c3ccc(O)c(OC)c3)n2)cc1			H37Rv	visual reading		MIC	8 µg/mL
NC[C@H]1O[C@H](O[C@H]2[C@H](O)[C@@H](O[C@H]3O[C@H](CO)[C@@H](O)[C@H](N)[C@H]3O)[C@H](N)C[C@@H]2N)[C@H](O)[C@@H](O)[C@@H]1O			72 strains	BACTEC		EC50	2.5 µg/mL
CCOC(=O)c1cn(C(=O)CCl)c2ccccc2c1=O		6.25 µg/mL	H37Rv	resazurin		inhibition	16%
CC1=C(C(=O)Nc2ccc(F)cc2)C(c2cccc([N+](=O)[O-])c2)C(C(=O)Nc2ccc(F)cc2)=C(C)N1			H37Rv			MIC	>6.25 µg/mL
CC1=NC2c3c(-c4ccc(Cl)cc4)cn(-c4ccc(C)cc4)c3N=CN2N1		12.5 µg/mL	H37Rv	BACTEC		inhibition	0%
NNC(=O)c1ccncc1			PA-824-resistant H37Rv	resazurin	PA-824-resistant	MIC	0.05 µg/mL
O=C1C(O)=C(c2ccc(Br)cc2)C(=O)C(O)=C1c1ccc(Br)cc1			H37Rv	BACTEC		MIC bound	>12.5 µg/mL
CCCCc1nc(Cl)c(C2C(C(=O)Nc3ccc([N+](=O)[O-])cc3)=C(C)NC(C)=C2C(=O)Nc2ccc([N+](=O)[O-])cc2)[nH]1			H37Rv			MIC	0.02 µg/mL
COC1=CC23CCCN2CCc2cc4c(cc2C3C1O)OCO4		12.5 µg/mL	H37Rv	BACTEC		inhibition	9%
O=c1oc2c(Cl)cc(Cl)cc2c(=O)n1-c1ccc(Cl)c(Cl)c1			CNCTC MY331/88			MIC	7.94 µM
CC1=C(C(=O)O)N2C(=O)C(NC(=O)C(c3ccc(O)cc3)N3CSC(=S)N(C(C)C)C3)C2SC1		12.5 µg/mL	H37Rv	BACTEC		inhibition	20%
O=C(/C=C/c1ccccc1)NNC(=O)c1cc(/C=C\c2ccco2)on1		6.25 µg/mL	H37Rv	resazurin		inhibition	80%
CC1(C)CS(=O)(=O)N=C2CCCC1C2		12.5 µg/mL	H37Rv	BACTEC		inhibition	0%
NC(=O)c1cnccn1			H37Rv	resazurin		MIC	12.5 µM

For reference, 9 entries again:

{"compound": "COc1ccc(-n2c(=O)oc3c(Cl)cc(Cl)cc3c2=O)cc1", "strain": "CNCTC MY331/88", "read-out": "MIC", "result": "126 µM"}
{"compound": "Cc1cn(C2C=CC(COC(=O)CNC(=O)c3ccncn3)O2)c(=O)[nH]c1=O", "strain": "H37Rv", "read-out": "EC50", "result": ">6.25 µg/mL"}
{"compound": "CCCCc1ccc2c(c1)C(=O)c1nc3ccncc3c(=O)n1-2", "strain": "H37Rv", "read-out": "MIC", "result": "0.015 µg/mL"}
{"compound": "CC1=C2C(=CO[C@H](C)[C@H]2C)C(=O)C(C(=O)O)=C1O", "dose": "100 µg/mL", "strain": "M.AV", "read-out": "inhibition", "result": "79%"}
{"compound": "CCCCc1nc(Cl)c(C2C(C(=O)Nc3ccc([N+](=O)[O-])cc3)=C(C)NC(C)=C2C(=O)Nc2ccc([N+](=O)[O-])cc2)[nH]1", "strain": "H37Rv", "read-out": "MIC", "result": "0.02 µg/mL"}
{"compound": "O=C1C(O)=C(c2ccc(Br)cc2)C(=O)C(O)=C1c1ccc(Br)cc1", "strain": "H37Rv", "method": "BACTEC", "read-out": "MIC bound", "result": ">12.5 µg/mL"}
{"compound": "Cn1c([N+](=O)[O-])cnc1-c1nnc(S(=O)(=O)Cc2ccc([N+](=O)[O-])cc2)s1", "read-out": "MIC", "result": ">6.25 µg/mL"}
{"compound": "CCn1cc(C(=O)O)c(=O)c2cc(F)c(N3CCN(CC(=O)OC[C@@H]4C=C[C@H](n5cc(C)c(=O)[nH]c5=O)O4)CC3)cc21", "strain": "H37Rv", "read-out": "EC50", "result": "<6.25 µg/mL"}
{"compound": "CCCCc1nc(Cl)c(C2C(C(=O)Nc3ccc(F)cc3)=C(C)NC(C)=C2C(=O)Nc2ccc(F)cc2)[nH]1", "dose": "6.25 µg/mL", "strain": "H37Rv", "method": "resazurin", "read-out": "inhibition", "result": "100%"}

A number after MIC or MFC names an inhibition level or a share of isolates. a–b is a range or a potency band. ECn is the concentration giving n% inhibition of infection, replication or growth. Blank or dashed fields: not listed here. MIC bound comes from a single tested concentration. Percent inhibition refers to the dose given; in toxicity tests it is the harm to the cells.